In the supplement of paper PMC8877412:
± gives the uncertainty stated by the source. This is a selection; strong and weak results do not stand in their true shares.

What follows are compounds tested on NCC-PMP1-C1 (assay: cell viability relative to DMSO control; higher = less growth inhibition). Settings: 10 µM; 72 h.
Method: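 NCC-PMP1-C1 pseudomyxoma peritonei cells were seeded in 384-well plates coated with Matrigel and MEF (1e4 cells). Viability was read after 72 h by CCK-8 and expressed as % of the DMSO control, mean ± SD of duplicates.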
`[As+3].[As+3].[O-2].[O-2].[O-2]` [Arsenic(III) oxide] showed a cell viability of 113 ± 20%.
